Tested on: elongation factor 2 (EF2)

wild type DT382 (no sequence given)
Relative Activity, IVTT (ratio (IC50 WT / IC50 variant)): 1

— patent US20090010966
